# Sequence variants of PSTVd stem 15 after infection

Data from the supplement of Wu et al. 2024, doi:10.1371/journal.ppat.1012142.

PSTVd intermediate strain, stem 15: wild type CUGGAGCGAUCGCUUCGG, pool pattern CUGGAGCGAUNGNNUNNG; upper and lower strand joined, each 5' to 3', the first 9 letters being the upper strand.

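Three N. benthamiana plants were inoculated with the whole mutant pool. Progeny were sequenced from the inoculated region (day 5), the margin of the inoculated leaf (day 10) and systemic leaves (day 12).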

Numbers give reads per thousand; 0 = not seen among the reads, higher = more abundant.
Each site shows the three plants.
"Pool" is the share in the plasmid pool used as inoculum, on the same scale.
The inoculated region was read from the minus strand, the other sites from the plus strand.
IR is the inoculated region, LM the leaf margin, Sys the systemic leaves.
The authors trace changes outside the varied positions to PCR and sequencing errors or to mutation in the plant; presence does not show that a variant is infectious alone.
Samples held 36,693 to 63,082 reads, so the smallest values rest on one or two reads.
Wild type was 10.2 per thousand in the pool and the most common sequence in every sample (inoculated region 285, 367, 312; leaf margin 785, 865, 782; systemic leaves 854, 898, 915).

sequence	pool	IR	LM	Sys
CAGGAGCGAUUGGAUAAG	0.0162	0 0 0	0 0 0	0 0 0
CAGGAGCGAUUGUGUGCG	0.0162	0 0 0	0 0 0	0 0 0
CAGGAGCGAUUGUUUAUG	0.0162	0 0 0	0 0 0	0 0 0
CAGGAGCGAUUGUUUUCG	0.0162	0 0 0	0 0 0	0 0 0
CAUGAGCGAUUGUUUCAG	0.0162	0 0 0	0 0 0	0 0 0
CCGGAGCGAUCGCCUCAG	0.0162	0 0 0	0 0 0	0 0 0
CCGGAGCGAUGGCCUACG	0.0162	0 0 0	0 0 0	0 0 0
CCGGAGCGAUGGUCUGAG	0.0162	0 0 0.0186	0 0 0	0 0 0
CGGGAGCGAUAGCAUCCG	0.0162	0 0 0	0 0 0	0 0 0
CGGGAGCGAUAGGCUAAG	0.0162	0 0 0	0 0 0	0 0 0
CGGGAGCGAUAGGGUGCG	0.0162	0 0 0	0 0 0	0 0 0
CGGGAGCGAUCGACUAGG	0.0162	0 0 0	0 0 0	0 0 0
CGGGAGCGAUCGUCUUAG	0.0162	0 0 0	0 0 0	0 0 0
CGGGAGCGAUGGCAUGAG	0.0162	0 0 0	0 0 0	0 0 0
CGGGAGCGAUGGCGUGCG	0.0162	0 0 0	0 0 0	0 0 0
CGGGAGCGAUGGUGUUUG	0.0162	0 0 0	0 0 0	0 0 0
CGGGAGCGAUUGUUUUUG	0.0162	0 0 0	0 0 0	0 0 0
CUAGAGCGAUAGCAUAGG	0.0162	0 0 0	0 0 0	0 0 0
CUAGAGCGAUAGCAUGAG	0.0162	0 0 0	0 0 0	0 0 0
CUAGAGCGAUCGCGUCAG	0.0162	0 0 0	0 0 0	0 0 0
CUAGAGCGAUCGCUUCUG	0.0162	0 0 0	0 0 0	0 0 0
CUAGAGCGAUCGUAUGCG	0.0162	0 0 0	0 0 0	0 0 0
CUAGAGCGAUGGGAUCAG	0.0162	0 0.0209 0	0 0 0	0 0 0
CUAGAGCGAUUGCAUUGG	0.0162	0 0 0	0 0 0	0 0 0
CUCGAGCGAUGGGUUUUG	0.0162	0 0 0	0 0 0	0 0 0
CUCGAGCGAUGGUUUACG	0.0162	0 0 0	0 0 0	0 0 0
CUCGAGUGAUGGUUUAUG	0.0162	0 0 0	0 0 0	0 0 0
CUGAAGCGAUGGACUGAG	0.0323	0 0 0.0186	0 0 0	0 0 0
CUGGAACGAUAGGCUUUG	0.0162	0 0 0	0 0 0	0 0 0
CUGGAGAGAUAGACUUGG	0.0162	0 0 0	0 0 0	0 0 0
CUGGAGAGAUAGCUUUGG	0.0162	0 0 0	0 0 0	0 0 0
CUGGAGAGAUCGUUUCUG	0.0162	0 0 0	0 0 0	0 0 0
CUGGAGAGAUUGACUUAG	0.0162	0 0 0	0 0 0	0 0 0
CUGGAGAGAUUGGAUCUG	0.0162	0 0 0	0 0 0	0 0 0
CUGGAGAGAUUGGGUCUG	0.0162	0 0 0	0 0 0	0 0 0
CUGGAGCAAUAGGCUCCG	0.0162	0 0 0	0 0 0	0 0 0
CUGGAGCAAUCGCUUCGG	0.0162	0.157 0.126 0.130	0.124 0.545 0.428	0.297 0.377 0.917
CUGGAGCAAUCGUUUACG	0.0162	0 0 0	0 0 0	0 0 0
CUGGAGCAAUGGGGUAGG	0.0162	0 0 0	0 0 0	0 0 0
CUGGAGCGAACGCUUCGG	0.0162	0.0587 0.0838 0.0744	0.0414 0.0545 0.0476	0.0594 0.0222 0.0199
CUGGAGCGACCGCUUCGG	0.0485	0.176 0.0209 0.0931	0.103 0.0818 0.190	0.119 0.111 0.120
CUGGAGCGAGCGCUUCGG	0.0646	0.176 0.168 0.186	0.0207 0.191 0.111	0.0594 0.0886 0.140
CUGGAGCGAUAGAAUAAG	1.03	0.215 0.251 0.242	0.0414 0.0273 0.0317	0 0 0
CUGGAGCGAUAGAAUACG	0.824	0.391 0.272 0.261	0.0207 0.109 0	0 0 0
CUGGAGCGAUAGAAUAGG	0.986	0.333 0.251 0.223	0 0.0545 0.0793	0 0 0
CUGGAGCGAUAGAAUAUG	1.02	0.294 0.272 0.409	0.103 0.0818 0.0793	0 0 0
CUGGAGCGAUAGAAUCAG	0.921	0.372 0.272 0.335	0.124 0.0545 0.0634	0 0 0
CUGGAGCGAUAGAAUCCG	0.970	0.430 0.503 0.763	0.0207 0.0273 0.0159	0 0 0
CUGGAGCGAUAGAAUCGG	1.02	0.313 0.209 0.298	0.0414 0 0.0159	0 0 0
CUGGAGCGAUAGAAUCUG	0.760	0.313 0.230 0.354	0.0207 0 0.0476	0 0 0
CUGGAGCGAUAGAAUGAG	1.65	1.33 1.15 1.08	0 0.0273 0.0159	0 0.310 0

The first 6 entries again:

- CAGGAGCGAUUGGAUAAG (pool 0.0162) -> IR 0 0 0; LM 0 0 0; Sys 0 0 0
- CAGGAGCGAUUGUGUGCG (pool 0.0162) -> IR 0 0 0; LM 0 0 0; Sys 0 0 0
- CAGGAGCGAUUGUUUAUG (pool 0.0162) -> IR 0 0 0; LM 0 0 0; Sys 0 0 0
- CAGGAGCGAUUGUUUUCG (pool 0.0162) -> IR 0 0 0; LM 0 0 0; Sys 0 0 0
- CAUGAGCGAUUGUUUCAG (pool 0.0162) -> IR 0 0 0; LM 0 0 0; Sys 0 0 0
- CCGGAGCGAUCGCCUCAG (pool 0.0162) -> IR 0 0 0; LM 0 0 0; Sys 0 0 0